Reference: PMC9785397 (Microorganisms, 2022)
One purity is given for all peptides; the source may state it once.

Assay: general procedure: Fmoc solid-phase peptide synthesis; Fmoc-Lys(Boc) Wang resin (0.44 mmol/g); HBTU/HOBt, HATU/HOAt or PyOxim with DIPEA
Conditions: whole synthesis, 214 nm

Final HPLC purity, > 95%:
H-Glu-Met-Arg-Leu-Ser-Lys-Phe-Phe-Arg-Asp-Phe-Ile-Leu-Gln-Arg-Lys-Lys-OH, H-Tyr(SO3H)-Met-Arg-Leu-Ser-Lys-Phe-Phe-Arg-Asp-Phe-Ile-Leu-Gln-Arg-Lys-Lys-OH, Ac-Glu-Met-Arg-Leu-Ser-Lys(Ac)-Phe-Phe-Arg-Asp-Phe-Ile-Leu-Gln-Arg-Lys(Ac)-Lys(Ac)-OH, H-hβGlu-Met-Arg-Leu-Ser-Lys-Phe-Phe-Arg-Asp-Phe-Ile-Leu-Gln-Arg-Lys-Lys-OH, Ac-Glu-Met-Arg-Leu-Ser-Lys-Phe-Phe-Arg-Asp-Phe-Ile-Leu-Gln-Arg-Lys-Lys-OH, H-AMALSKFFRDFILQRKK-OH
